# Data: patent publication US20140080766
# What was measured:
# [1] = biological target: carcinoembryonic antigen (CEA) on HT-1080(CEA) and HT-29 cells, human, P06731 35-685; assay: cell-based or functional assay
# [2] = biological target: epidermal growth factor receptor (EGFR) on human cancer cell lines (A431, HT-1080(CEA), HT-29), human, P00533 25-1210; assay: cell-based or functional assay
Substance,"IC50's (M), cytotoxicity on HT-29 cells [1] [M]","IC50's (M), cytotoxicity on A431 cells [2] [M]","IC50's (M), cytotoxicity on HT-29 cells [2] [M]","IC50's (M), cytotoxicity on HT-1080(CEA) cells [2] [M]"
C7PFO (CEA-binding Fn3 clone C7 - perfringolysin O fusion protein),1.2e-10,–,–,–
E6PFO (EGFR-binding Fn3 clone E6 - perfringolysin O fusion protein),–,5.4e-10,1.5e-11,1e-11
